A mixed list of measured activities; the numbers were collected in NIAID ChemDB.

Common to all: tests in culture

ECn: concentration that inhibits the pathogen or its effect by n%. Conditions beyond the fields shown may differ between rows. Inhibition is in % at the dose shown (toxicity tests: loss of growth or viability). Two numbers with a dash give a range or band. Blank or dashed fields: not listed here.

{"SMILES": "Nc1ncnc2c1ncn2Cc1c(F)cccc1Cl", "measure": "inhibition", "tested at": "0.8 µg/mL", "cells": "L929", "organism": "Cryptosporidium parvum", "strain": "Calf isolate", "value": "51.79%"}
{"SMILES": "CC(C)(C)C1CCC(CN2C3=NC[C@H](C4CCCCC4)N3C[C@H]2CC2CCCCC2)CC1", "measure": "MIC", "organism": "Cryptococcus neoformans", "strain": "ATCC 32045", "value": "2–4 µg/mL"}
{"SMILES": "N/C(=N\\N=C\\c1ccc(Cl)cc1)N/N=C/c1ccc(Cl)cc1", "measure": "inhibition", "tested at": "0.032 µg/mL", "cells": "L929", "organism": "Cryptosporidium parvum", "strain": "Human isolate", "value": "-1.26%"}
{"SMILES": "O=c1[nH]c(=O)n([C@H]2C[C@H](O)[C@@H](CO)O2)cc1I", "measure": "inhibition", "tested at": "1 µg/mL", "organism": "Cryptosporidium parvum", "value": "57%"}
{"SMILES": "COC(=O)Nc1nc2ccc(C(=O)c3cccs3)cc2[nH]1", "measure": "EC50", "organism": "Cryptococcus neoformans", "strain": "IU4", "value": "<0.22 µg/mL"}
{"SMILES": "Cc1cn([C@H]2C[C@H](N=[N+]=[N-])[C@@H](CO)O2)c(=O)[nH]c1=O", "measure": "inhibition", "tested at": "20 µg/mL", "cells": "L929", "organism": "Cryptosporidium parvum", "strain": "Calf isolate", "value": "61.17%"}
{"SMILES": "CC(C)(C)C1CCC(CN2C3=NC[C@@H](C4CCCCC4)N3C[C@@H]2CC2CCCCC2)CC1", "measure": "MIC", "organism": "Cryptococcus neoformans", "strain": "ATCC 32045", "value": "8–16 µg/mL"}
{"SMILES": "CC(C)[C@H](NC(=O)[C@H](CCCN=C(N)N)NC(=O)N[C@@H](Cc1ccccc1)C(=O)O)C(=O)N[C@H](C=O)CCCN=C(N)N", "measure": "inhibition", "tested at": "50 µg/mL", "organism": "Cryptosporidium parvum", "value": "57.87%"}
{"SMILES": "CO[C@H]1O[C@@H](n2ccc(=O)[nH]c2=O)C[C@@H]1N=[N+]=[N-]", "measure": "inhibition", "tested at": "10 µg/mL", "organism": "Cryptosporidium parvum", "value": "9%"}
{"SMILES": "c1ccc(C[C@H]2CN=C3N(CCC45CC6CC(CC(C6)C4)C5)[C@@H](Cc4ccccc4)CN32)cc1", "measure": "EC50", "organism": "Cryptococcus neoformans", "strain": "ATCC 32045", "value": "6.3 µg/mL"}
{"SMILES": "CC(=O)N[C@@H](CC(C)C)C(=O)N[C@@H](CC(C)C)C(=O)N[C@H](C=O)CCCN=C(N)N", "measure": "inhibition", "tested at": "500 µg/mL", "organism": "Cryptosporidium parvum", "read by": "cell count / microscopy", "value": "56.6%"}
{"SMILES": "CCN1C2=NC[C@@H](C3CCCCC3)N2C[C@@H]1Cc1ccccc1", "measure": "MIC", "organism": "Cryptococcus neoformans", "strain": "ATCC 32045", "value": "62–125 µg/mL"}
{"SMILES": "CO[C@@H]1C[C@@H](C[C@H]2CC[C@H](C)[C@H]([C@@H](C)C(=O)O)O2)O[C@]2(O[C@](C)([C@H]3CC[C@@](C)([C@@H]4O[C@@H]([C@H]5O[C@@](O)(CO)[C@H](C)C[C@@H]5C)C[C@@H]4C)O3)C[C@H]2C)[C@@H]1C", "measure": "EC50", "cells": "L929", "organism": "Cryptosporidium parvum", "strain": "Calf isolate", "value": "<0.8 µg/mL"}
{"SMILES": "Cc1cn([C@@H]2O[C@H](CO)[C@@H](O)[C@@H]2O)c(=O)[nH]c1=O", "measure": "inhibition", "tested at": "10 µg/mL", "organism": "Cryptosporidium parvum", "value": "0%"}
{"SMILES": "CCCCNC(=O)n1c(NC(=O)OC)nc2ccccc21", "measure": "EC50", "organism": "Cryptococcus neoformans", "strain": "IU8698", "value": "<3.8 µg/mL"}
{"SMILES": "CC(C)(C)C1CCC(CN2C3=NC[C@@H](C4CCCCC4)N3C[C@H]2C2CCCCC2)CC1", "measure": "EC50", "organism": "Cryptococcus neoformans", "strain": "ATCC 32045", "value": "3.6 µg/mL"}
{"SMILES": "CCN(CC)CCCC(C)Nc1ccnc2cc(Cl)ccc12", "measure": "inhibition", "tested at": "0.8 µg/mL", "cells": "L929", "organism": "Cryptosporidium parvum", "strain": "Calf isolate", "value": "35.76%"}
{"SMILES": "NC(=O)c1ncn([C@@H]2O[C@H](CO)[C@@H](O)[C@H]2O)n1", "measure": "inhibition", "tested at": "50 µg/mL", "organism": "Cryptosporidium parvum", "value": "91%"}
{"SMILES": "N#CC(c1ccc(Cl)cc1)c1c(Cl)cc(-n2ncc(=O)[nH]c2=O)cc1Cl", "measure": "inhibition", "tested at": "20 µg/mL", "cells": "L929", "organism": "Cryptosporidium parvum", "strain": "Calf isolate", "value": "24.81%"}
{"SMILES": "C1CCC([C@@H]2CN3C(=NC[C@H]3C3CCCCC3)N2CCC23CC4CC(CC(C4)C2)C3)CC1", "measure": "MIC", "organism": "Cryptococcus neoformans", "strain": "ATCC 32045", "value": "8–16 µg/mL"}
{"SMILES": "Nc1nc(=O)n([C@H]2C[C@H](O)[C@@H](CO)O2)cc1I", "measure": "inhibition", "tested at": "25 µg/mL", "organism": "Cryptosporidium parvum", "value": "92%"}
{"SMILES": "COC(=O)Nc1nc2ccc(Sc3ccccc3)cc2[nH]1", "measure": "EC50", "organism": "Cryptococcus neoformans", "strain": "IU4", "value": "<0.028 µg/mL"}
{"SMILES": "CCN1C2=NC[C@H](Cc3ccccc3)N2C[C@@H]1C1CCCCC1", "measure": "EC50", "organism": "Cryptococcus neoformans", "strain": "ATCC 32045", "value": "64.6 µg/mL"}
{"SMILES": "O=C(O)P(=O)(O)O", "measure": "inhibition", "tested at": "50 µg/mL", "organism": "Cryptosporidium parvum", "value": "3%"}

The last 3 rows once more:

SMILES,measure,tested at,cells,organism,strain,read by,value
COC(=O)Nc1nc2ccc(Sc3ccccc3)cc2[nH]1,EC50,-,-,Cryptococcus neoformans,IU4,-,<0.028 µg/mL
CCN1C2=NC[C@H](Cc3ccccc3)N2C[C@@H]1C1CCCCC1,EC50,-,-,Cryptococcus neoformans,ATCC 32045,-,64.6 µg/mL
O=C(O)P(=O)(O)O,inhibition,50 µg/mL,-,Cryptosporidium parvum,-,-,3%